The text below walks through data of article PMC6952414 (Nature Communications, 2020).

Positions of bridges follow the written chain, without caps; N, C: chain ends. Non-standard residues stand in square brackets, D forms with d. Chains are numbered I, II in the order given. No end group written: not given here. Ahx = NCCCCCC(=O)O

For this test, the system named is A/Tokyo/UTHP013/2016 (H1N1 pdm). The format is cell-based, Influenza A virus.

“I: MARRPVNHFA[Ahx]KK-NH2 / II: MARRPVNHFA[Ahx]K / III: MARRPVNHFA[Ahx] / IV: MARRPVNHFA[Ahx] (amide I:12-IV:C, I:13-II:C, II:12-III:C) [PVF-tet]”: the “cytopathicity of the strain in MDCK cells (in words)” value is “reduced”.
